Assay [1] has as its target EBOV GP (Mayinga variant) on pseudotyped lentivirus particles (EBOV (Zaire), Mayinga variant) (UniProt Q05320). Kind of assay: cell-based or functional assay.
In assay [2] the target is EBOV GP (Mayinga variant) on pseudotyped lentivirus particles (EBOV (Zaire), Mayinga variant), Q05320. As to the kind of experiment: cell-based or functional assay.

For the molecule KZ52 monoclonal antibody, in assay [1], the IC50 (µg/mL), neutralization of EBOV GP-pseudotyped lentivirus on HEK293T is 0.06 µg/mL; the IC90 (µg/mL), neutralization of EBOV GP-pseudotyped lentivirus on HEK293T worked out at 17.2 µg/mL; the IC99 (µg/mL), neutralization of EBOV GP-pseudotyped lentivirus on HEK293T was greater than 1000 µg/mL.

B1: EVB100 monoclonal antibody (antibody, V domains shown)
chain 1: QVQLQESGPGLVKPSDTLSLTCTVSGGSLSSFYWSWIRQPPGKGLEWIGYIYYSGSPNYSPSLESRVTMSVDTTRNQISLKLDSVTAADTAVYYCVRASRSYYWGSYRPTAFDSWGQGTLVTVSS
chain 2: SYELTQPLSVSVSPGQTAIFTCSGDNLGDKYVCWFQQRPGQSPMLLIYQDNKRPSGIPERFSGSNSGNTATLTISGTQSTDEADYYCQTWDSTVVFGGGTKLTVL
For B1, in assay [2], the IC50 (µg/mL), neutralization of EBOV GP-pseudotyped lentivirus on HEK293T was found to be 0.06 µg/mL; the IC90 (µg/mL), neutralization of EBOV GP-pseudotyped lentivirus on HEK293T came out at 0.61 µg/mL; the IC99 (µg/mL), neutralization of EBOV GP-pseudotyped lentivirus on HEK293T is 7.58 µg/mL.

B2: EVB165 monoclonal antibody (antibody, V domains shown)
chain 1: DVQLVESGGGVVQPGGSLKLACVVSGFRFSDYWMSWVRQAPGKGLEWVANIKQDGSGKYYVDSVKGRFTVSRDNAKNSLYLHMTSLGAEDTAVYFCARAAPTGSYTNILVDNVHFDYWGQGILVAVSS
chain 2: GIQLTQSPGSLSASVGDSVTITCRPNQNIATYINWYQQTPGKAPKLLIYAASILQSGVPSRFSGAGSGTHFTLIISTLQPEDSATYYCQQSYSTPWTFGQGTKVEIK
Take B2: in assay [2], the IC50 (µg/mL), neutralization of EBOV GP-pseudotyped lentivirus on HEK293T is 1.77 µg/mL; the IC90 (µg/mL), neutralization of EBOV GP-pseudotyped lentivirus on HEK293T is 19.5 µg/mL; the IC99 (µg/mL), neutralization of EBOV GP-pseudotyped lentivirus on HEK293T is 267 µg/mL.

B3: EVB166 monoclonal antibody (antibody, V domains shown)
chain 1: QVQLVQSGAEVKKPGSSVKVSCKTSGGTLSNYAISWVRQAPGQGLEWMGGTIPTLGMSTYAPNFQGRVAITADKSTSTAYMELSSLRSDDTAVYYCATMGSADTSFYFYMDVWGKGTTVTVSS
chain 2: EIVLTQSPGTLSLSPGERATLSCRASQSVSSSYLAWYQQKPGQAPRLLIYGTSSRATGIPDRFSGSASGTDFTLTISRLEPEDFAVYYCQQYAYSPFTFGPGTKVDIK
B3: in assay [2], the IC50 (µg/mL), neutralization of EBOV GP-pseudotyped lentivirus on HEK293T stood at 0.86 µg/mL; the IC90 (µg/mL), neutralization of EBOV GP-pseudotyped lentivirus on HEK293T was 6.84 µg/mL; the IC99 (µg/mL), neutralization of EBOV GP-pseudotyped lentivirus on HEK293T is 97.2 µg/mL.
